Experimental data from patent publication US6727226B2 (priority 2000, dated 2004).

Key:
sodium channels [1] = assay: iv administration to rats: skeletal muscle contraction, blood pressure and heart rate; settings: 80 nmol iv
sodium channels [2] = assay: Intracerbroventricular (ICV) injection of S3.2 to mice
sodium channels [3] = assay: Intrathecal (it) administration of S3.2 to mice

Xaa2-Asn-Cys-Cys-Asn-Gly-Gly-Cys-Ser-Ser-Lys-Xaa4-Cys-Arg-Asp-His-Als-Arg-Cys-Cys-#
effect on blood pressure (sodium channels [1]): no effect | spectrum of activity after ICV injection (sodium channels [2]): rapid loss of righting reflex, coma-like inactivity and spastic uncontrolled limb movement | effect following intrathecal administration (sodium channels [3]): rapid hindlimb paralysis that spreads to include the entire body
